Source: patent US7081518, “Anti-mesothelin antibodies having high binding affinity” (US Dept. of Health and Human Services, dated 2006)

Tests used:
D8(scFv)-PE38 = D8(scFv)-PE38 (Pseudomonas aeruginosa, UniProt P11439 278-389; P11439 406-638)
E4(scFv)-PE38 = E4(scFv)-PE38 (Pseudomonas aeruginosa, UniProt P11439 278-389; P11439 406-638)
SS1(scFv)-PE38 = SS1(scFv)-PE38 (Pseudomonas aeruginosa, UniProt P11439 278-389; P11439 406-638)
C10(scFv)-PE38 = C10(scFv)-PE38 (Pseudomonas aeruginosa, UniProt P11439 278-389; P11439 406-638)

B1: recombinant mesothelin (other)
chain: EVEKTACPSGKKAREIDESLIFYKKWELEACVDAALLATQMDRVNAIPFTYEQLDVLKHKLDELYPQGYPESVIQHLGYLFLKMSPEDIRKWNVTSLETLKALLEVNKGHEMSPQVATLIDRFVKGRGQLDKDTLDTLTAFYPGYLCSLSPEELSSVPPSSIWAVRPQDLDTCDPRQLDVLYPKARLAFQNMNGSEYFVKIQSFLGGAPTEDLKALSQQNVSMDLATFMKLRTDAVLPLTVAEVQKLLGPHVEGLKAEERHRPVRDWILRQRQDDLDTLGLGLQGGIPNGYLVLDLSMQEALS
Kd (D8(scFv)-PE38): 0.3 nM | koff (D8(scFv)-PE38): 6.22e-05 s⁻¹ | kon (D8(scFv)-PE38): 206000 M⁻¹ s⁻¹ | Kd (E4(scFv)-PE38): 3 nM | koff (E4(scFv)-PE38): 0.000612 s⁻¹ | kon (E4(scFv)-PE38): 211000 M⁻¹ s⁻¹ | Kd (SS1(scFv)-PE38): 0.72 nM | koff (SS1(scFv)-PE38): 0.000223 s⁻¹ | kon (SS1(scFv)-PE38): 311000 M⁻¹ s⁻¹ | Kd (C10(scFv)-PE38): 0.2 nM | koff (C10(scFv)-PE38): 6.56e-05 s⁻¹ | kon (C10(scFv)-PE38): 308000 M⁻¹ s⁻¹
